Results taken from patent US20170128489A1 (priority 2014, published 2017).

Experiments:
[1] = target: M2 (22-62, S31N) (Influenza A virus, UniProt P0DOF5, S31N); format: biochemical
[2] = target: influenza A M2 channels (A/Udorn/72, S31N mutant) (Influenza A virus, UniProt P0DOF5, S31N); format: cell-based; details: pH 5.3

## Copper N-(1-adamantyl)iminoacetate acetylacetonate [Amt-IMA-Cu-ACAC]
[1]
  EC50: 4.5 µM
[2]
  EC50: 57 µM

## Copper N-(1-cyclooctyl)iminoacetate acetylacetonate [CO-IMA-Cu-ACAC]
[2]
  EC50: 64 µM

## Copper cyclooctylimidodiacetamide [CO-IDAm-Cu]
[2]
  EC50: 37 µM

## Zinc cyclooctylimidodiacetamide [CO-IDAm-Zn]
[2]
  EC50: 137 µM
